A mixed list of measured activities; the numbers were collected in NIAID ChemDB.

All rows: enzyme or target tests; agent: HIV-1; target: Protease

Lines come from different laboratories, so protocols vary. ICn is the concentration giving n% inhibition. Blank or dashed fields: not listed here.

smiles	measure	mutations	read by	conditions	value
CC(C)C[C@H](NC(=O)[C@@H](NC(=O)N(C)Cc1ccccn1)C(C)C)C(=O)C(F)(F)[C@H](CC(C)C)NC(=O)[C@@H](NC(=O)N(C)Cc1ccccn1)C(C)C	IC50		fluorescence		0.00155 µM
CCC(c1ccccc1)c1c(O)cc(CCc2ccccc2)oc1=O	Ki				0.5 µM
O=c1oc(-c2ccccc2)cc(O)c1Cc1ccccc1	IC50		HPLC	pH 5.2	78 µM
CC(C)[C@H](NC(=O)[C@@H](NC(=O)C(Cc1ccccc1)CP(=O)(O)C(Cc1ccccc1)NC(=O)[C@@H](NC(=O)[C@@H](NC(=O)OC(C)(C)C)C(C)C)C(C)C)C(C)C)C(N)=O	Ki			pH 4.5	0.00004 µM
CCOC(=O)COc1ccc(C[C@H](C[C@H](O)[C@H](Cc2ccccc2)NC(=O)OC(C)(C)C)C(=O)N[C@H]2c3ccccc3C[C@H]2O)cc1	IC50		absorbance		0.0001 µM
CCC(c1cccc(NC(=O)[C@H](C)N)c1)c1c(O)c2ccccc2oc1=O	Ki		substrate cleavage		0.18 µM
CC(=O)N[C@@H](CC(C)C)C(=O)N[C@@H](Cc1ccccc1)C(O)=C(C#N)C#N	IC50		HPLC		>400 µM
COC(=O)c1ccc(CN2[C@H](COc3ccccc3)[C@H](O)[C@@H](O)[C@@H](COc3ccccc3)N(Cc3ccc(C(=O)OC)cc3)S2(=O)=O)cc1	Ki	PR-V82A			0.092 µM
CC(C)(C)NC(=O)[C@@H]1C[C@@H]2CCCC[C@@H]2CN1C[C@@H](O)[C@H](Cc1ccccc1)NC(=O)[C@@H](NC(=O)c1ccccc1)C(C)(C)C	IC50				0.011 µM
CCOC(=O)[C@@H](Cc1ccc(O)c(O)c1)OC(=O)/C=C/c1ccc(O)c(O)c1/C=C/c1ccc(O)c(O)c1	IC50		fluorescence		12.03 µg/mL
CC(C)(C)OC(=O)N[C@@H](Cc1ccccc1)[C@@H](O)C[C@@H](Cc1ccc(OCC(=O)O)cc1)C(=O)N[C@H]1c2ccccc2C[C@H]1O	IC50		absorbance		0.00004 µM
Cc1cccc(C)c1OCC(=O)N[C@@H](Cc1ccccc1)[C@H](O)C(=O)N1CSC(C)(C)[C@H]1C(=O)NCc1ccc2c(c1)OCO2	IC50		HPLC		>0.05 µM
Cc1cc(SC2=C(O)CC(CCc3ccncc3)(C(C)C)OC2=O)c(C(C)(C)C)cc1CO	IC50		HPLC		0.00015 µM
C=C1[C@@H](C)[C@H]2[C@H](Cc3ccccc3)NC(=O)[C@]23[C@H](OC(C)=O)/C=C/[C@@H](C)C[C@@H](C)C/C=C/[C@H]3[C@@H]1O	IC50				3 µM
CC(C)c1ccccc1SC1=C(O)CC(CCCC(=O)N(C)CCc2ccccc2)(c2ccccc2)OC1=O	IC50		HPLC	pH 4.7	0.216 µM
CC(C)[C@H](NC(=O)[C@@H](NC(=O)C(Cc1ccccc1)CP(=O)(O)C(Cc1ccccc1)NC(=O)c1ccccc1)C(C)C)C(N)=O	Ki			pH 6.5	0.002 µM
O=c1oc2ccccc2c(O)c1CCCOc1ccccc1	Ki				~1 µM
CC(C)[C@H](NC(=O)[C@@H](NC(=O)C1CCCCC1P(=O)(O)C(Cc1ccccc1)NC(=O)OCc1ccccc1)C(C)C)C(N)=O	Ki			pH 4.5	0.007 µM
O=C(/C=C/c1ccc(O)c(O)c1/C=C/c1ccc(O)c(O)c1)O[C@H](Cc1ccc(O)c(O)c1)C(=O)O	IC50		fluorescence		12.23 µg/mL
O=C(Nc1cccc(C(c2c(O)c3c(oc2=O)CCCCCC3)C2CC2)c1)Oc1ccccc1	Ki		substrate cleavage		0.66 µM
CC(C)[C@H](NC(=O)OCc1ccccn1)C(=O)N[C@@H](Cc1ccccc1)C(=O)C(F)(F)[C@H](Cc1ccccc1)NC(=O)[C@@H](NC(=O)OCc1ccccn1)C(C)C	IC50		fluorescence		0.00002 µM
CC(C)c1ccccc1SC1=C(O)CC(CCCC(=O)N2CCSCC2)(c2ccccc2)OC1=O	IC50		HPLC	pH 4.7	0.285 µM
O=c1cc(O)cc(-c2ccccc2)o1	IC50		HPLC	pH 5.2	>200 µM
CC(C)(C)NC(=O)[C@@H]1C[C@@H]2CCCC[C@@H]2CN1C[C@@H](O)[C@H](Cc1ccccc1)NC(=O)[C@@H](NC(=O)c1ccc2ccccc2n1)C(C)(C)C	IC50				0.0092 µM
COC(=O)[C@@H](NC(=O)[C@@H](NC(=O)CC[C@H](O)[C@H](Cc1ccc(O)cc1)NC(=O)[C@H](C)NC(=O)[C@H](C)NC(=O)[C@H](CO)NC(=O)OC(C)(C)C)C(C)C)C(C)C	Ki				0.18 µM
CC(C)[C@H](NS(=O)(=O)CCc1ccccn1)C(=O)N[C@@H](Cc1ccccc1)C(=O)C(F)(F)[C@H](Cc1ccccc1)NC(=O)[C@@H](NS(=O)(=O)CCc1ccccn1)C(C)C	IC50		fluorescence		0.00024 µM
CC(C)(C)OC(=O)N[C@@H](Cc1ccc([N+](=O)[O-])cc1)/C(O)=C(\C#N)c1ccc([N+](=O)[O-])cc1	Ki		HPLC		60 µM
CN1[C@H](COc2ccccc2)[C@H](O)[C@@H](O)[C@@H](COc2ccccc2)N(C)S1(=O)=O	Ki	PR-V82A			3 µM
CC[C@H](C)[C@H](NC(=O)OCc1ccccc1)C(=O)N[C@@H](Cc1cnc[nH]1)C(=O)NC(Cc1ccccc1)P(=O)(O)CC(Cc1ccccc1)C(=O)N[C@H](C(=O)N[C@H](C(N)=O)C(C)C)C(C)C	Ki			pH 4.5	0.0004 µM
CC(C)c1ccccc1SC1=C(O)CC(CCCCC(=O)NCc2ccccc2)(c2ccccc2)OC1=O	IC50		HPLC	pH 4.7	0.026 µM
CC(C)(C)OC(=O)N[C@@H](Cc1ccccc1)[C@@H](O)C[C@@H](Cc1ccc(OCP(=O)(O)O)cc1)C(=O)N[C@H]1c2ccccc2C[C@H]1O	IC50		absorbance		0.00006 µM
CC(C)c1ccccc1SC1=C(O)CC(CCCCC(=O)NCCc2ccccc2)(c2ccccc2)OC1=O	IC50		HPLC	pH 4.7	0.071 µM
Cc1cccc(C)c1OCC(=O)N[C@@H](Cc1ccccc1)[C@H](O)C(=O)N1CSC(C)(C)[C@H]1C(=O)NCc1ccccc1	IC50		HPLC		<0.05 µM
O=C(COc1ccccc1)NC[C@H]1O[C@@H]1[C@@H](O)[C@H](Cc1ccccc1)NC(=O)COc1ccccc1	IC50		fluorescence		150 µM
CCOC(=O)COc1ccc(-c2cc(O)c(SCCc3ccccc3)c(=O)o2)cc1	IC50				0.57 µM
CC(C)[C@H](NC(=O)OCc1ccccc1)C(=O)N[C@@H](Cc1ccccc1)C(=O)C(F)(F)[C@H](Cc1ccccc1)NC(=O)[C@@H](NC(=O)OCc1ccccc1)C(C)C	IC50		fluorescence		0.0001 µM
O=S1(=O)N(Cc2cccc(-c3cccs3)c2)[C@H](COc2ccccc2)[C@H](O)[C@@H](O)[C@@H](COc2ccccc2)N1Cc1cccc(-c2cccs2)c1	Ki	PR-I84V			83 µM
O=c1oc2ccccc2c(O)c1CCCOc1ccccc1	IC50		HPLC	pH 5.2	2.7 µM
CC[C@@]1(O)C(=O)NCc2c1cc1n(c2=O)Cc2cc3ccccc3nc2-1	IC50		substrate cleavage / fluorescence		>100 µM
CC(C)(C)NC(=O)[C@@H]1C[C@@H]2CCCC[C@@H]2CN1C[C@@H](O)[C@H](Cc1ccccc1)NC(=O)[C@H](CC(N)=O)NC(=O)c1ccccc1	IC50				0.044 µM
Cc1cccc(C)c1OCC(=O)N[C@@H](Cc1ccccc1)[C@H](O)C(=O)N1CSC(C)(C)[C@H]1C(=O)NCc1cccc(C(N)=O)c1	IC50		HPLC		<0.05 µM
CC(C)[C@H](NC(=O)N(C)Cc1ccccn1)C(=O)N[C@@H](Cc1ccccc1)[C@H](O)[C@H](O)[C@H](Cc1ccccc1)NC(=O)[C@@H](NC(=O)N(C)Cc1ccccn1)C(C)C	Ki	PR-M46I	fluorescence		0.00012 µM
CC(C)c1ccccc1SC1=C(O)CC(CCCC(N)=O)(c2ccccc2)OC1=O	IC50		HPLC	pH 4.7	0.101 µM

3 of the rows above, restated:

smiles	measure	mutations	read by	conditions	value
CCOC(=O)[C@@H](Cc1ccc(O)c(O)c1)OC(=O)/C=C/c1ccc(O)c(O)c1/C=C/c1ccc(O)c(O)c1	IC50		fluorescence		12.03 µg/mL
CCC(c1ccccc1)c1c(O)cc(CCc2ccccc2)oc1=O	Ki				0.5 µM
COC(=O)c1ccc(CN2[C@H](COc3ccccc3)[C@H](O)[C@@H](O)[C@@H](COc3ccccc3)N(Cc3ccc(C(=O)OC)cc3)S2(=O)=O)cc1	Ki	PR-V82A			0.092 µM